{"source": "paper PMC3445474", "about": "(PLoS ONE, 2012)", "test_system": "A/Udorn/307/72(H3N2)", "data": [{"compound": "CC(=O)N[C@H]1[C@H]([C@H](O)[C@H](O)CO)OC(C(=O)O)=C[C@@H]1N=C(N)N", "note": "[zanamivir, Zanamivir]", "values": [{"measurement": "Increase in the HI titer of saliva induced by zanamivir", "result": 16, "unit": "fold"}]}]}
